Test results taken from PMC9493007.

Test system: Nc1ncnc2c1ncn2[C@@H]1O[C@H](COP(=O)(O)OP(=O)(O)OP(=O)(O)O)[C@@H](O)[C@H]1O
Assay: purified protein
Settings: 20 mM Tris pH 8.0, 100 mM NaCl, 10 mM MgCl2, 1 mM DTT, 0.025% BSA, 5% glycerol, 10 µM protein, Hill fit, unit not given, taken from the YsaN value

## YsaN∆83 (Yersinia enterocolitica subsp. enterocolitica 8081)
  K0.5: 467.3 ± 30.15 µM
